Data: the supplement of paper PMC3578754
Fold change is the IC50 on the isolate divided by the IC50 on a reference virus; 1 = unchanged, higher = more resistant. Changes are given against the subtype B consensus. No active / inactive call. The values were gathered from many studies (numbered anew) with different assays, which the source does not name. Most viruses are clinical isolates; some are laboratory strains or clones with known resistance changes. Isolates with mixed residues are left out; stretches that were not sequenced show no change. Round top values that many isolates share are read here as limits; other very high values and 0.1 may be limits too.

Columns and labels:
Experiment in all cases: fold change of IC50 against reference virus; higher = more resistant
tenofovir = compound: C[C@H](Cn1cnc2c(N)ncnc21)OCP(=O)(O)O [tenofovir]
Experimental: (§1)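 Cell-culture drug susceptibility tests of virus bearing the reverse transcriptase of each isolate, gathered from many studies.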

zidovudine = compound: Cc1cn([C@H]2C[C@H](N=[N+]=[N-])[C@@H](CO)O2)c(=O)[nH]c1=O [zidovudine]
Experimental: as §1

stavudine = compound: Cc1cn([C@H]2C=C[C@@H](CO)O2)c(=O)[nH]c1=O [stavudine]
Experimental: as §1

delavirdine = compound: CC(C)Nc1cccnc1N1CCN(C(=O)c2cc3cc(NS(C)(=O)=O)ccc3[nH]2)CC1 [delavirdine]
Experimental: as §1

nevirapine = compound: Cc1ccnc2c1NC(=O)c1cccnc1N2C1CC1 [nevirapine]
Experimental: as §1

efavirenz = compound: O=C1Nc2ccc(Cl)cc2[C@@](C#CC2CC2)(C(F)(F)F)O1 [efavirenz]
Experimental: as §1

abacavir = compound: Nc1nc(NC2CC2)c2ncn([C@H]3C=C[C@@H](CO)C3)c2n1 [abacavir]
Experimental: as §1

zalcitabine = compound: Nc1ccn([C@H]2CC[C@@H](CO)O2)c(=O)n1 [zalcitabine]
Experimental: as §1

didanosine = compound: O=c1[nH]cnc2c1ncn2[C@H]1CC[C@@H](CO)O1 [didanosine]
Experimental: as §1

emtricitabine = compound: Nc1nc(=O)n([C@@H]2CS[C@H](CO)O2)cc1F [emtricitabine]
Experimental: as §1

Test System | fold change of IC50 against reference virus (tenofovir) | fold change of IC50 against reference virus (zidovudine) | fold change of IC50 against reference virus (stavudine) | fold change of IC50 against reference virus (delavirdine) | fold change of IC50 against reference virus (nevirapine) | fold change of IC50 against reference virus (efavirenz) | fold change of IC50 against reference virus (abacavir) | fold change of IC50 against reference virus (zalcitabine) | fold change of IC50 against reference virus (didanosine) | fold change of IC50 against reference virus (emtricitabine)
HIV-1 isolate 1200 (reverse transcriptase changes: D67N K70R A98S K101E K122E D123E D177E I178L V179I G190A T215I K219Q V245E K277R T286A E297K, study 121) | 3.5 | 177 | 2 | 2.1 | ≥ 400 | 76 | 2.8 | 1.2 | 1.2 | –
HIV-1 isolate 1633 (reverse transcriptase changes: M41L D67N T69D K103N L210W T215Y, study 15) | 4.6 | 900 | 4.3 | 5.8 | 22 | 7.5 | 6.7 | 1.7 | 1.9 | –
HIV-1 isolate 767 (reverse transcriptase changes: K65R T69D K70R Y181C G190A, study 118) | 1.2 | 0.2 | 1.6 | 0.6 | 180 | 3.5 | 3.6 | 1.9 | 1.5 | –
HIV-1 isolate 1306 (reverse transcriptase changes: D67N K70R L100I K102R K103N I135V I142V Q174H V179I G196E R211G F214L T215F K219Q A272S I293V E297A E308G, study 121) | 1.4 | 30 | 1.4 | ≥ 250 | 33 | 700 | 0.8 | 0.5 | 0.8 | –
HIV-1 isolate 621 (reverse transcriptase changes: K122E Y181C F214L A272P K277R A376T A400T D460N S468T H483Y K512Q S519N, study 44) | – | – | – | – | 150 | – | – | – | – | 1
HIV-1 isolate 74 (reverse transcriptase changes: Q174L V179I Y181C M184V V245M Q278S, study 15) | 0.4 | 0.2 | 0.6 | 21 | 61 | 0.6 | 2 | 1.5 | 1 | –
HIV-1 isolate 1311 (reverse transcriptase changes: R83K K103N V108I I135V E169D Y181C T200A Q207E T215Y H221Y V245T, study 121) | 1.7 | 28 | 1.7 | ≥ 250 | ≥ 400 | 700 | 2.4 | 1.1 | 1.4 | –
HIV-1 isolate 890 (reverse transcriptase changes: K32T T39A M41L E44D I47V D67N A98S K103N H208Y L210W R211K T215Y K219N V245T K277R R284K T286A, study 121) | 5.9 | 2400 | 4.2 | 41 | 55 | 15 | 6.6 | 1.8 | 1.6 | –
HIV-1 isolate 352 (reverse transcriptase changes: T39A V60I D67N K70R K122E D123N Q174R D177E M184V I195M G196E E203K Q207G F214L K219Q A288S, study 15) | 1 | 2.8 | 1.4 | 0.7 | 0.4 | 0.4 | 4.8 | 1.4 | 1.5 | –
HIV-1 isolate 1250 (reverse transcriptase changes: V35Q T39A M41L V60I D67N T69N K70R D123E I135T I142V K166R D177E G196E E203D T215F K219E, study 121) | 8.1 | 923 | 2.6 | 1.7 | 3.6 | 1.6 | 4.2 | 1 | 1.7 | –
HIV-1 isolate 1356 (reverse transcriptase changes: M41L K122E F214L T215Y A272P K277R M357T A376T A400T N447S D460N S468T S519N, study 17) | – | 65 | – | – | 1 | – | – | – | 1.9 | 1
HIV-1 isolate 1576 (reverse transcriptase changes: K102Q D123E Y181C I202V R211K T215Y A272P K277R T286A, study 121) | 0.6 | 1.4 | 1.3 | 6.1 | 85 | 1 | 1.3 | 0.9 | 1.1 | –
HIV-1 isolate 203 (reverse transcriptase changes: M41L S48T D67N T69N K70R K122E M184V G196E H208Y T215F D218E K219Q V245M A272P A288T E297K, study 121) | 1.4 | 33 | 2.3 | 0.5 | 0.5 | 0.3 | 6.8 | 2.3 | 1.9 | –
HIV-1 isolate 126 (reverse transcriptase changes: M41L L74V V106A K122E M184V F214L T215Y A272P K277R M357T A376T A400T N447S D460N S468T S519N, study 17) | – | 1 | – | – | 150 | – | – | – | 19 | 2000
HIV-1 isolate 461 (reverse transcriptase changes: D67N K70R L100I K102R K103N I135V I142V Q174H V179I G196E R211G F214L T215F K219Q A272S I293V E297A K311R, study 121) | 1.2 | 35 | 1.1 | ≥ 250 | 29 | 700 | 0.9 | 0.5 | 0.7 | –
